Pooled drug test results. Numbers come from NIAID ChemDB, via PubChem.

Common to all: whole-cell or culture tests; species: Mycobacterium tuberculosis

Two numbers with a dash give a range or band. Inhibition is in % at the dose shown (toxicity tests: loss of growth or viability). A number after MIC or MFC names an inhibition level or a share of isolates. Blank or dashed fields: not listed here. Lines come from different laboratories, so protocols vary. ECn is the concentration giving n% inhibition of infection, replication or growth. MIC bound: limit read from a one-dose screen.

structure	setting	read by	dose	strain or isolate	endpoint	cell line	value
CCOc1ccc(N=Nc2sc(N)nc2-c2ccccc2)cc1		BACTEC	6.25 µg/mL	H37Rv	inhibition		0%
CC1COc2c(N3CCN(C)CC3)c(F)cc3c(=O)c(C(=O)O)cn1c23				45 strains (drug-susceptible)	MIC90		1 µg/mL
Oc1[nH]c2ccc(OC(F)(F)F)cc2c1N=NC(=S)Nc1ccc(Br)cc1		broth dilution / resazurin		H37Rv	EC50		1.341 µg/mL
CC1=NN(c2ccccc2)C(=O)C1N=Nc1ccccc1S(=O)(=O)[O-].[Na+]		BACTEC		H37Rv	MIC bound		>12.8 µg/mL
Cc1ccc2c(c1)c(N=NC(=S)NCc1ccccc1)c(O)n2C		broth dilution / resazurin		H37Rv	EC90		>100 µg/mL
C=CCn1c(-c2cc3ccccc3oc2=O)cs/c1=N\N=C\c1ccc(Cl)cc1			12.5 µg/mL	H37Rv	inhibition		36%
CC(C)N=c1cc2n(-c3ccc(Cl)cc3)c3ccccc3nc-2cc1Nc1ccc(Cl)cc1	multidrug-resistant			14	MIC		0.12 µg/mL
C[C@H](Cc1ccc(O)c(O)c1)[C@@H](C)Cc1ccc(O)c(O)c1					MIC		50 µg/mL
CN(Cc1c[nH]c2ccc(Br)cc12)Cc1c[nH]c2ccc(Br)cc12				H37Ra	MIC		16 µg/mL
C=CCNC(=S)N=Nc1c(O)[nH]c2ccc(C)cc12		broth dilution / resazurin		H37Rv	EC50		18.1 µg/mL
COc1cc(C2SCC(=O)N2NC2=Nc3ccccc3Sc3ccccc32)cc(OC)c1OC		broth dilution		H37Rv	MIC		500 µg/mL
CO/N=C1\CN(c2nc3c(cc2F)c(=O)c(C(=O)O)cn3C2CC2)CC1CN				37 strains (drug-resistant)	MIC90		>4 µg/mL
O=C(NC1CONC1=O)c1ccccc1C(F)(F)F				H37Rv	MIC		50 µg/mL
CCn1cc(C(=O)O)c(=O)c2cc(F)c(N3CCNCC3)cc21				134 isolates	MIC50		4 µg/mL
Cc1ccc2c(c1)c(N=NC(=S)Nc1ccc(Cl)cc1)c(O)n2C		broth dilution / resazurin		H37Rv	EC50		>100 µg/mL
O=C(Oc1ccn(C2OC(CO)C(O)C2O)c(=O)c1)C12CC3CC(CC(C3)C1)C2		BACTEC		H37Rv	MIC bound		>12.5 µg/mL
CN(Cc1cccc(Cl)c1)Cc1c[nH]c2ccccc12				H37Ra	MIC		32 µg/mL
Cc1ccc2c(c1)c(N=NC(=S)Nc1ccccc1Br)c(O)n2C		broth dilution / resazurin		H37Rv	EC90		>100 µg/mL
COc1c(OC(C)=O)ccc(/C=C2/N=C(C)OC2=O)c1[N+](=O)[O-]		BACTEC	12.5 µg/mL	H37Rv	inhibition		9%
O=C1[C@H](Cl)[C@@H](c2ccc(F)cc2)N1NC1=Nc2ccccc2Sc2ccccc21		broth dilution		H37Rv	MIC		1000 µg/mL
C=CCn1c(-c2cc3ccccc3oc2=O)cs/c1=N\N=C\c1ccc(O)c(OCC)c1				H37Rv	EC50		<12.5 µg/mL
CC(C)(C)NCc1cc(C(C)(C)C)cc(-c2ccc(Cl)cc2)c1O				H37Rv	MIC	VERO	12.5 µg/mL
Cc1cc(O)c2c(c1)C(=O)c1cccc(O)c1C2=O					MIC		>128 µg/mL
CSc1nc2c(c(N(C)C)n1)C(O)n1c(nc3ccccc31)S2		resazurin	6.25 µg/mL	H37Rv	inhibition		61%
CCOc1cc(/C=N/N=c2\scc(-c3cc4cc(Br)ccc4oc3=O)n2C2CCCCC2)ccc1O			12.5 µg/mL	H37Rv	inhibition		89%
CCN(CC)C(=S)Sc1nc2ccccc2s1		BACTEC	128 µg/mL	H37Rv	inhibition		98%
CCCCOc1ccc(NC(=S)Nc2ccc(N(C)C)cc2)cc1				H37RV #80	MIC		2 µg/mL
Cc1ccc(C2SCC(=O)N2NC2=Nc3ccccc3Sc3ccccc32)cc1		broth dilution		H37Rv	MIC		1000 µg/mL
CN[C@@H]1[C@H](O[C@H]2[C@H](O[C@H]3[C@H](O)[C@@H](O)[C@H](N=C(N)N)[C@@H](O)[C@@H]3N=C(N)N)O[C@@H](C)[C@]2(O)C=O)O[C@@H](CO)[C@H](O)[C@H]1O				H37RV (DL8280-R)	MIC		5 µg/mL
CC(C)(C)C(=O)OCC1OC(n2ccc(O)cc2=O)C(O)C1O		BACTEC	12.5 µg/mL	H37Rv	inhibition		-9%
NC(=O)c1cnccn1				Isolate 9739	MIC		300 µg/mL
C[C@H]1COc2c(N3CCN(C)CC3)c(F)cc3c(=O)c(C(=O)O)cn1c23				18 strains (levofloxacin-resistant)	MIC50		3.13 µg/mL
O=C(Nc1ccc(Cl)cc1)c1ccc(Cl)cc1OS(=O)(=O)c1ccccc1	14 d			H37Rv	MIC		8 µM
Brc1cc(Br)cc(Cn2cc(Cn3c4ccccc4c4ccccc43)nn2)c1		agar		H37Rv	MIC		25 µg/mL
Cc1c2cc[n+]([O-])cc2c(C)c2c1oc1ccccc12		resazurin	6.25 µg/mL	H37Rv	inhibition		101%
COc1cc([C@@H]2[C@@H](Cl)C(=O)N2NC2=Nc3ccccc3Sc3ccccc32)cc(OC)c1OC		broth dilution		H37Rv	MIC		250 µg/mL
COC(=O)c1ccc(N2CCOS(=O)OCC2)cc1OC(=O)c1ccccc1		BACTEC		H37Rv	MIC		≥12.5 µg/mL
N[C@@H]1CN(c2c(F)cc3c(=O)c(C(=O)O)cn([C@@H]4C[C@@H]4F)c3c2Cl)CC12CC2				23 strains (rifampin- isoniazid-susceptible)	MIC50		0.1 µg/mL
O=CN(Cc1ccccc1)Cc1c[nH]c2ccccc12				H37Ra	MIC		64 µg/mL
C[C@@H]1CN(c2c(F)c(N)c3c(=O)c(C(=O)O)cn(C4CC4)c3c2F)C[C@H](C)N1				H37Rv	MIC		0.32 µg/mL
Fc1ccc(F)c(CNCCc2c[nH]c3ccccc23)c1				H37Ra	MIC		64 µg/mL
O=C(Nc1ccc(Br)cc1)c1ccc(Br)cc1OS(=O)(=O)c1ccccc1	21 d			H37Rv	MIC		8 µM
COC(=O)c1cc([O-])c2sc(C)c(C)[n+]2n1		BACTEC		H37Rv	MIC bound		>12.5 µg/mL
NNC(=O)c1ccncc1					MIC		0.03 µg/mL
O=C(NC1CONC1=O)c1ccc(C(F)(F)F)cc1				H37Rv	MIC		>50 µg/mL
COCC(O)CNCCNCC(O)COC				H37Rv	MIC bound		>6.25 µg/mL
COc1cc2c(cc1-n1cc(Cn3c4ccccc4c4ccccc43)nn1)oc1ccccc12		agar		H37Rv	MIC		25 µg/mL
CC1COc2c(N3CCN(C)CC3)c(F)cc3c(=O)c(C(=O)O)cn1c23				H37RV (PAS-R)	MIC		0.63–1.25 µg/mL
O=C(Nc1cccc(Br)c1)c1cc(Cl)ccc1OS(=O)(=O)c1ccccc1	21 d			H37Rv	MIC		8 µM
CCCCS/C(N)=N\N=C\c1ccnnc1				H37Rv (ATCC 27294)	MIC		25 µg/mL
CCn1c(C)c(C(C[N+](=O)[O-])C[N+](=O)[O-])c2ccccc21				H37Ra	MIC		>64 µg/mL
CCCCn1c(-c2cc3cc(Br)ccc3oc2=O)cs/c1=N\N=C\c1ccc(Cl)cc1				H37Rv	EC50		<12.5 µg/mL
COc1cc(Cn2cc(Cn3c4ccccc4c4ccccc43)nn2)cc(OC)c1OC		agar		H37Rv	MIC		12.5 µg/mL
CO[C@H]1/C=C/O[C@@]2(C)Oc3c(C)c(O)c4c(=O)c(c5oc6cc(N7CCN(CC(C)C)CC7)cc(=O)c6nc5c4c3=C2O)NC(=O)/C(C)=C\C=C\[C@H](C)[C@H](O)[C@@H](C)[C@@H](O)[C@@H](C)[C@H](OC(C)=O)[C@@H]1C				23 strains (rifampicin-resistant)	MIC90		25 µg/mL
Cc1ccc(S(=O)(=O)C(=S)N(C)N(C)C)cc1				RMP-R	MIC		12.8 µg/mL
Cc1ccc2[nH]c(O)c(N=NC(=S)Nc3ccccc3Br)c2c1		broth dilution / resazurin		H37Rv	EC50		2.898 µg/mL
O=C(NC1CONC1=O)c1ccc(F)cc1				12PI	MIC		25 µg/mL
O=C(Nc1ccc(C(F)(F)F)cc1)c1cc(Cl)ccc1OS(=O)(=O)c1ccccc1	14 d			H37Rv	MIC		1 µM
O=C1[C@H](Cl)[C@@H](c2ccc(Cl)cc2)N1NC1=Nc2ccccc2Sc2ccccc21		broth dilution		H37Rv	MIC		100 µg/mL
Nc1nc(-n2cc(C(=O)O)c(=O)c3cc(F)c(N4CC(O)C4)c(Cl)c32)c(F)cc1F				23 strains (rifampicin-resistant)	MIC90		6.25 µg/mL
O=C1[C@H](Cl)[C@@H](c2ccccc2Cl)N1NC1=Nc2ccccc2Sc2ccccc21		broth dilution		H37Rv	MIC		100 µg/mL
C[N+](C)(C)CC(=O)N/N=C/c1c(O)ccc2ccccc12.[Cl-]		BACTEC	12.5 µg/mL	H37Rv	inhibition		13%
Nc1ccc(C(=O)O)c(O)c1				H37Rv	MIC		0.1 µg/mL
FC(F)(F)Oc1ccc(-n2cc(Cn3c4ccccc4c4ccccc43)nn2)cc1		agar		H37Rv	MIC		25 µg/mL
CN[C@@H]1[C@H](O[C@H]2[C@H](O[C@H]3[C@H](O)[C@@H](O)[C@H](N=C(N)N)[C@@H](O)[C@@H]3N=C(N)N)O[C@@H](C)[C@]2(O)C=O)O[C@@H](CO)[C@H](O)[C@H]1O				Ravenel #226	MIC		4 µg/mL
NNC(=O)c1ccncc1		agar		mc(^2)7000	MIC99		0.1 µg/mL
CCCCNC(=S)NNc1ccc([N+](=O)[O-])cn1		BACTEC	12.5 µg/mL	H37Rv	inhibition		0%
Fc1ccccc1CNCc1c[nH]c2ccccc12				H37Ra	MIC		64 µg/mL
O=[N+]([O-])c1ccc(NC(=S)N=Nc2c(O)n(CN3CCOCC3)c3ccc(OC(F)(F)F)cc23)cc1		broth dilution / resazurin		H37Rv	EC50		6.683 µg/mL
CS/C(N)=N\N=C\c1cccnc1				ATCC 35822 (isoniazid-resistant)	MIC		>100 µg/mL
O=C(OCc1cnccn1)c1cnccn1		BACTEC	12.5 µg/mL	H37Rv	inhibition		0%
CC[C@H]1OC(=O)[C@H](C)[C@@H](O[C@H]2C[C@@](C)(OC)[C@@H](O)[C@H](C)O2)[C@H](C)[C@@H](O[C@@H]2O[C@H](C)C[C@H](N(C)C)[C@H]2O)[C@](C)(OC)C[C@@H](C)C(=O)[C@H](C)[C@@H](O)[C@]1(C)O				18 strains (levofloxacin-resistant)	MIC50		6.25 µg/mL
C[C@@H]([C@H](N)C(=O)N[C@H](C(=O)O)[C@H]1O[C@@H](n2ccc(=O)[nH]c2=O)[C@H](O)[C@@H]1O)[C@H](O)c1ccc(O)cn1		BACTEC		H37Rv	MIC bound		>12.5 µg/mL
Clc1cccc(CNCCc2c[nH]c3ccccc23)c1Cl				H37Ra	MIC		32 µg/mL
OC[C@H]1O[C@@H](Oc2ccc(/C=C/c3cc(O)cc(O)c3)cc2O)[C@H](O)[C@@H](O)[C@@H]1O					MIC		>128 µg/mL
O=C1N2CCNc3ccccc3C(c3ccccc3)N1CC2		BACTEC		H37Rv	MIC		≥12.5 µg/mL
CN(Cc1c[nH]c2ccccc12)Cc1c[nH]c2ccccc12				H37Ra	MIC		32 µg/mL
COc1ccc(-c2oc3cc(O)c(O)c(O)c3c(=O)c2OC)cc1					MIC		50 µg/mL
Clc1ccc(CNCCc2c[nH]c3ccccc23)cc1				H37Ra	MIC		32 µg/mL
O=C1N(C2CCCCC2)CC2(Cc3ccccc3)c3ccccc3NC12O		BACTEC		H37Rv	MIC		≥12.8 µg/mL
Oc1ccc(Cl)c2cccnc12				100 isolates (drug-sensitive)	MIC90		0.25 µg/mL
Cc1ccc(NC(=S)N=Nc2c(O)[nH]c3ccc(OC(F)(F)F)cc23)cc1		broth dilution / resazurin		H37Rv	EC50		3.472 µg/mL
CCN(CC)CCOc1ccc(NC(=S)Nc2ccc(OCC(C)C)cc2)cc1				H37RV #301	MIC		31.3 µg/mL
CC1(C)OCC(COC(c2ccccc2)(c2ccccc2)c2ccccc2)O1		BACTEC		H37Rv	MIC		>12.5 µg/mL
Cc1csc([C@](C)(O)c2nnc(Nc3ccn(Cc4c(F)cccc4F)n3)s2)n1				WILD TYPE	MIC		0.39 µg/mL

For reference, 7 entries again:

structure,setting,read by,dose,strain or isolate,endpoint,cell line,value
CS/C(N)=N\N=C\c1cccnc1,,,,ATCC 35822 (isoniazid-resistant),MIC,,>100 µg/mL
CO[C@H]1/C=C/O[C@@]2(C)Oc3c(C)c(O)c4c(=O)c(c5oc6cc(N7CCN(CC(C)C)CC7)cc(=O)c6nc5c4c3=C2O)NC(=O)/C(C)=C\C=C\[C@H](C)[C@H](O)[C@@H](C)[C@@H](O)[C@@H](C)[C@H](OC(C)=O)[C@@H]1C,,,,23 strains (rifampicin-resistant),MIC90,,25 µg/mL
Cc1ccc(NC(=S)N=Nc2c(O)[nH]c3ccc(OC(F)(F)F)cc23)cc1,,broth dilution / resazurin,,H37Rv,EC50,,3.472 µg/mL
CC1COc2c(N3CCN(C)CC3)c(F)cc3c(=O)c(C(=O)O)cn1c23,,,,H37RV (PAS-R),MIC,,0.63–1.25 µg/mL
COc1c(OC(C)=O)ccc(/C=C2/N=C(C)OC2=O)c1[N+](=O)[O-],,BACTEC,12.5 µg/mL,H37Rv,inhibition,,9%
Nc1nc(-n2cc(C(=O)O)c(=O)c3cc(F)c(N4CC(O)C4)c(Cl)c32)c(F)cc1F,,,,23 strains (rifampicin-resistant),MIC90,,6.25 µg/mL
COc1cc(C2SCC(=O)N2NC2=Nc3ccccc3Sc3ccccc32)cc(OC)c1OC,,broth dilution,,H37Rv,MIC,,500 µg/mL